Results of unrelated studies side by side (data: NIAID ChemDB).

Shared fields: whole-cell or culture tests

A number after MIC or MFC names an inhibition level or a share of isolates. Inhibition is in % at the dose shown (toxicity tests: loss of growth or viability). An empty or dashed field is not shown. a–b is a range or a potency band. ECn is the concentration giving n% inhibition of infection, replication or growth. Fold resistance: result on the changed form divided by that on wild type. Rows are shuffled and stem from different studies.

structure | species | strain | mutations | cell line | read by | conditions | read-out | dose | value
C#CC[C@@H](C(=O)N[C@H](/C=C/C(=O)OCC)C[C@@H]1CCNC1=O)n1cccc(NC(=O)c2cc(C)on2)c1=O | Rhinovirus | Serotype 31 |  | H1-HELA | cytopathic effect / XTT |  | inhibition | 0.1 µM | 90%
Nc1nc(N)c2ncn(CCOCP(=O)(O)O)c2n1 | Varicella zoster virus | BVDU-resistant |  | HEL | plaque count |  | EC50 |  | 1.32 µg/mL
N#CC(c1ccc(Cl)cc1)c1c(Cl)cc(-n2ncc(=O)[nH]c2=O)cc1Cl | Cryptosporidium parvum | Calf isolate |  | L929 |  |  | inhibition | 0.8 µg/mL | 9.77%
C(#Cc1ccc(C#Cc2ccccc2)s1)c1ccccc1 | Mouse cytomegalovirus |  |  | 3T3-L1 | plaque count |  | EC50 |  | 0.094 µg/mL
CCCCN(CCCC)CCC(O)c1cc2c(Cl)cc(Cl)cc2c2cc(C(F)(F)F)ccc12 | Cryptosporidium parvum | Calf isolate |  | L929 |  |  | inhibition | 4 µg/mL | 63.58%
CN[C@@H]1[C@H](O[C@H]2[C@H](O[C@H]3[C@H](O)[C@@H](O)[C@H](N=C(N)N)[C@@H](O)[C@@H]3N=C(N)N)O[C@@H](C)[C@]2(O)C=O)O[C@@H](CO)[C@H](O)[C@H]1O | Klebsiella pneumoniae | ESBL-3894 |  |  |  |  | MIC |  | 6.25 µg/mL
CCCCCCCCCCCCCCCCCCCCCCOCC(C)(COCCCCCCCCCCCCCCCCCCCCCC)CO[C@]1(C(=O)O)C[C@H](OS(=O)(=O)O)[C@@H](NC(C)=O)[C@H]([C@H](OS(=O)(=O)O)[C@@H](COS(=O)(=O)O)OS(=O)(=O)O)O1 | Respiratory syncytial virus | LONG |  | HEP-2 | plaque count |  | EC50 |  | 0.2 µM
CN1CCC2(C1)C1CC3CC(C1)CC2C3 | Influenza A virus | A/University of Maryland/2/72 |  |  |  |  | MIC |  | 0.1 µg/mL
CC(O)C(CP(=O)(O)O)OCn1ccc(=O)[nH]c1=O | Sandfly fever virus | Sicilian strain Vero cells |  |  | cytopathic effect |  | EC50 |  | >320 µg/mL
NC(=O)c1nc(F)c[nH]c1=O | Influenza A virus | H3N2 AICHI/2/68 |  | MDCK | plaque count |  | EC50 |  | 0.078 µg/mL
Nc1ccn([C@H]2CC[C@@H](CO)O2)c(=O)n1 | HIV-2 | LAV-2 |  | U-937 | virus yield |  | inhibition | 0.01 µM | >100%
C[C@@H]1CN(c2c(F)c(N)c3c(=O)c(C(=O)O)cn(C4CC4)c3c2F)C[C@H](C)N1 | Streptococcus pneumoniae | Clinical isolate RT2 |  |  |  |  | MIC |  | 8 µg/mL
Nc1nc(=O)n2ccn([C@@H]3O[C@H](CO)[C@@H](O)[C@H]3O)c2n1 | West Nile virus | ATCC VR-82 |  | VERO | cytopathic effect |  | EC50 |  | <4.6 µg/mL
CN(C)[C@@H]1C(=O)C(C(N)=O)=C(O)[C@@]2(O)C(=O)C3=C(O)c4c(O)cccc4[C@@](C)(O)[C@H]3[C@H](O)[C@@H]12 | Cryptosporidium parvum | Calf isolate |  | L929 |  |  | inhibition | 20 µg/mL | 30.01%
Nc1ncnc2c1ncn2C[C@@H](CO)OCP(=O)(O)O | Epstein-Barr virus |  |  | P3HR-1 |  |  | inhibition | 0.01 µM | 4%
OCCC#Cc1ccc(-c2ccccc2)s1 | Mouse cytomegalovirus |  |  | 3T3-L1 | plaque count |  | EC50 |  | 0.312 µg/mL
Nc1nc2c(ncn2COC(CO)CO)c(=O)[nH]1 | Varicella zoster virus | PCV-resistant/A |  | HEL | plaque count |  | EC50 |  | 0.098 µg/mL
Nc1nc2c(ncn2COC(CO)CO)c(=O)[nH]1 | Mouse cytomegalovirus | HPMPC-resistant |  | C1271 | plaque count |  | EC50 |  | 11 µM
c1cc(-c2cscc2-c2ccsc2)cs1 | Mouse cytomegalovirus |  |  | 3T3-L1 | plaque count |  | EC50 |  | >1 µg/mL
Nc1ncnc2c1ncn2CCOCP(=O)(O)O | Mouse cytomegalovirus | WILD TYPE |  | C1271 | plaque count |  | EC50 |  | 2.3 µM
O=C(O)CP(=O)(O)O | Varicella zoster virus | OKA |  | HEL | plaque count |  | EC50 |  | 7.1 µg/mL
O=c1cnn([C@@H]2O[C@H](CO)[C@@H](O)[C@H]2O)c(=O)[nH]1 | Dengue virus | Type 1 (Hawaii) |  | VERO | cytopathic effect |  | EC50 |  | 0.5 µg/mL
Cc1cn(COC(CP(=O)(O)O)C(C)O)c(=O)[nH]c1=O | Sandfly fever virus | Sicilian strain Vero cells |  |  | cytopathic effect |  | EC50 |  | >320 µg/mL
CO[C@@H]1[C@@H](O[C@@H]2O[C@H](C)[C@@H](O[C@H]3C[C@@](C)(O)[C@@H](O)[C@H](C)O3)[C@H](N(C)C)[C@H]2O)[C@@H](CC=O)C[C@@H](C)[C@@H](O[C@H]2CC[C@H](N(C)C)[C@H](C)O2)/C=C/C=C/C[C@@H](C)OC(=O)C[C@H]1O | Cryptosporidium parvum | Calf isolate |  | L929 |  |  | inhibition | 4 µg/mL | 39.63%
C#Cc1ccc(-c2ccccc2)s1 | Mouse cytomegalovirus |  |  | 3T3-L1 | plaque count |  | EC50 |  | >1 µg/mL
Cc1cn(COC(CP(=O)(O)O)C(O)CO)c(=O)[nH]c1=O | Sandfly fever virus | Sicilian strain Vero cells |  |  | cytopathic effect |  | EC50 |  | >320 µg/mL
Nc1ccc(S(=O)(=O)Nc2ncccn2)cc1 | Toxoplasma gondii |  |  |  |  |  | inhibition | 3 µg/mL | 69%
O=c1[nH]c(=O)n([C@H]2C[C@H](O)[C@@H](CO)O2)cc1/C=C/Br | Epstein-Barr virus |  |  | P3HR-1 |  |  | inhibition | 1 µM | 6%
Nc1ccn([C@@H]2C[C@H](CO)[C@@H](O)[C@H]2O)c(=O)n1 | Vesicular stomatitis virus |  |  | RK-13 | cytopathic effect |  | EC50 |  | >400 µg/mL
c1coc(-c2ccc(-c3cccs3)s2)c1 | Mouse cytomegalovirus |  |  | 3T3-L1 | plaque count |  | EC50 |  | 0.094 µg/mL
Nc1nc2c(ncn2COCCOCP(=O)(O)O)c(=O)[nH]1 | Mouse cytomegalovirus | Foscarnet-resistant |  | C1271 | plaque count |  | EC50 |  | 24.3 µM
CC[C@@]1(O)C(=O)OCc2c1cc1n(c2=O)Cc2cc3ccccc3nc2-1 | Pneumocystis carinii |  |  |  |  | 7 d | inhibition | 100 µg/mL | 56%
Nc1ncnc2c1ncn2Cc1c(F)cccc1Cl | Cryptosporidium parvum | Calf isolate |  | L929 |  |  | inhibition | 0.8 µg/mL | 51.79%
C=CC#Cc1ccc(-c2ccccc2)s1 | Mouse cytomegalovirus |  |  | 3T3-L1 | plaque count |  | EC50 |  | 0.5 µg/mL
NC(=O)c1ncn([C@@H]2O[C@H](CO)[C@@H](O)[C@H]2O)n1 | Measles virus | Edmonston |  | CV-1 | cytopathic effect |  | EC50 |  | 10 µg/mL
C[C@@]1(O)[C@H](O)[C@@H](CO)O[C@H]1c1c[nH]c2c(N)ncnc12 | Hepatitis C virus |  |  | Hep3B-T5B | MTT |  | inhibition | 2 µg/mL | 0.13%
Nc1ncnc2c1ncn2C[C@@H](CO)OCP(=O)(O)O | Varicella zoster virus | PCV-resistant/B |  | HEL | plaque count |  | EC50 |  | 0.0054 µg/mL
Nc1nc2c(ncn2COCCO)c(=O)[nH]1 | Mouse cytomegalovirus | Foscarnet-resistant |  | C1271 | plaque count |  | EC50 |  | 20.3 µM
CC(=O)NC[C@H]1CN(c2ccc(N3CCN(C(=O)CO)CC3)c(F)c2)C(=O)O1 | Staphylococcus aureus | Oxacillin-resistant |  |  |  |  | MIC90 |  | 1–4 µg/mL
CC(C)=CCN1c2cc(Cl)cc3[nH]c(=S)n(c23)C[C@@H]1C | HIV-1 |  | RT-M41L T215Y | MT-4 |  |  | EC95 |  | 0.1 µM
C[C@@]1(O)[C@H](O)[C@@H](CO)O[C@H]1n1ccc2c(N)ncnc21 | Hepatitis C virus |  |  | HepG2-T5B | MTT |  | inhibition | 50 µg/mL | 0%
CO[C@@H]1[C@@H](OC(N)=O)[C@@H](O)[C@H](Oc2ccc3c(O)c(NC(=O)c4ccc(O)c(CC=C(C)C)c4)c(=O)oc3c2C)OC1(C)C | Epstein-Barr virus |  |  | Akata-Bx1 | PCR |  | EC50 |  | 41.05 µM
CC#Cc1ccc(-c2ccccc2)s1 | Mouse cytomegalovirus |  |  | 3T3-L1 | plaque count |  | EC50 |  | >1 µg/mL
Cc1cc(S(N)(=O)=O)ccc1NC(=O)COc1ccc(Cl)cc1C(=O)c1cc(Cl)cc(C#N)c1 | HIV-1 | AZT-resistant (RT D67N K70R T215Y) RTMCY | RT-D67N K70R T215Y | MAGI | β-galactosidase |  | EC50 |  | 0.0005 µM
CN(C)[C@@H]1C(=O)C(C(N)=O)=C(O)[C@@]2(O)C(=O)C3=C(O)c4c(O)c(NC(=O)CNC(F)(F)F)cc(F)c4C[C@H]3C[C@@H]12 | Staphylococcus aureus | 101-29213 |  |  | agar diffusion |  | EC50 |  | 1 µg/mL
CCc1nc(N)nc(N)c1-c1ccc(Cl)cc1 | Cryptosporidium parvum | Calf isolate |  | L929 |  |  | EC50 |  | <0.8 µg/mL
OCCC#Cc1cc2ccccc2s1 | Mouse cytomegalovirus |  |  | 3T3-L1 | plaque count |  | EC50 |  | >1 µg/mL
CC(=O)N[C@@H](CC(C)C)C(=O)N[C@@H](CC(C)C)C(=O)N[C@H](C=O)CCCN=C(N)N | Cryptosporidium parvum |  |  |  |  |  | inhibition | 500 µg/mL | 56.6%
CC1(C)N=C(N)N=C(N)N1c1ccc(Cl)cc1 | Cryptosporidium parvum | Calf isolate |  | L929 |  |  | inhibition | 20 µg/mL | 23.73%
C[C@H]1CN(c2c(F)cc3c(=O)c(C(=O)O)cn(C4CC4)c3c2OC(F)F)CCN1 | Staphylococcus aureus | 20 strains (oxacillin-susceptible) |  |  |  |  | MIC50 |  | 0.06 µg/mL
C[C@H]1[C@H](O)[C@@H](C)/C=C/C=C/C=C/C=C/C=C/C=C/C=C/[C@H](O[C@@H]2O[C@H](C)[C@@H](O)[C@H](N)[C@@H]2O)C[C@@H]2O[C@](O)(C[C@@H](O)C[C@@H](O)CC[C@H](O)[C@@H](O)C[C@@H](O)CC(=O)O[C@H]1C)C[C@H](O)[C@H]2C(=O)O | Cryptosporidium parvum | Calf isolate |  | L929 |  |  | inhibition | 4 µg/mL | 3.7%
CC(C)(CO)C(=O)SCCOP(=O)(NCc1ccccc1)OC[C@H]1O[C@@H](n2cnc3c(=O)[nH]c(N)nc32)[C@](C)(O)[C@@H]1O | Hepatitis C virus | GT1b | L31F | Replicon cells | replicon |  | fold resistance |  | 0.88

Again, the opening 5 rows:

C#CC[C@@H](C(=O)N[C@H](/C=C/C(=O)OCC)C[C@@H]1CCNC1=O)n1cccc(NC(=O)c2cc(C)on2)c1=O ; species: Rhinovirus ; strain: Serotype 31 ; cell line: H1-HELA ; read by: cytopathic effect / XTT ; read-out: inhibition ; dose: 0.1 µM ; value: 90%
Nc1nc(N)c2ncn(CCOCP(=O)(O)O)c2n1 ; species: Varicella zoster virus ; strain: BVDU-resistant ; cell line: HEL ; read by: plaque count ; read-out: EC50 ; value: 1.32 µg/mL
N#CC(c1ccc(Cl)cc1)c1c(Cl)cc(-n2ncc(=O)[nH]c2=O)cc1Cl ; species: Cryptosporidium parvum ; strain: Calf isolate ; cell line: L929 ; read-out: inhibition ; dose: 0.8 µg/mL ; value: 9.77%
C(#Cc1ccc(C#Cc2ccccc2)s1)c1ccccc1 ; species: Mouse cytomegalovirus ; cell line: 3T3-L1 ; read by: plaque count ; read-out: EC50 ; value: 0.094 µg/mL
CCCCN(CCCC)CCC(O)c1cc2c(Cl)cc(Cl)cc2c2cc(C(F)(F)F)ccc12 ; species: Cryptosporidium parvum ; strain: Calf isolate ; cell line: L929 ; read-out: inhibition ; dose: 4 µg/mL ; value: 63.58%